Screening data, single-dose tests

From ChEMBL document CHEMBL3988442, “University of Dundee, Small-Polar-MMV Screening Library” (2021).

Results are given as percent effect. The record does not define 0% and 100%; most values in the screen are far below 50% and negative numbers occur (in some assays of this library far below -100). This is part of a subset picked to be rich in strong results.

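Growth of Mycobacterium tuberculosis over 4 days (cholesterol / DPPC medium with tyloxapol); the read-out is not stated. Tested at 500 µM. Higher reads as more growth inhibition (inferred: compounds with an IC50 in retests scored well above the rest). About 18,000 compounds were tested under these conditions; 5% (about 900) showed 50% or more at least once.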

{"smiles": "CSCCC(C)(N)C#N", "stereo": "stereo unspecified", "Percent Effect": 10.82}
{"smiles": "O=C1NCCCCC1N1CCNCC1", "stereo": "stereo unspecified", "Percent Effect": 0.1373}
{"smiles": "CCNC(C)(C)C(=O)N(C)Cc1ccc(OC)c(F)c1", "Percent Effect": -17.13}
{"smiles": "CCS(=O)(=O)N1CCC(C(=O)NCCN(C)C)CC1", "Percent Effect": 5.191}
{"smiles": "COC(=O)C1CC(c2ccccc2)=NO1", "stereo": "stereo unspecified", "Percent Effect": 84.89}
{"smiles": "COc1cc(C(C)=O)ccc1O", "Percent Effect": -0.7345}
{"smiles": "COC[C@@H]1CCCN1Cc1cc(OC)ccn1", "Percent Effect": -6.421}
{"smiles": "CC(=O)c1c[nH]c(C(=O)NC2CCN(C(C)=O)CC2)c1", "Percent Effect": -10.4}
{"smiles": "COC1(C)CN(C(=O)Nc2ccc(F)cc2)C1", "Percent Effect": 33.17}
{"smiles": "NS(=O)(=O)Cc1cccc(NC(=O)N2CCSCC2)c1", "Percent Effect": 16.45}
{"smiles": "CCOC(=O)CSCC(=O)NC(=O)NCc1ccco1", "Percent Effect": -15.2}
{"smiles": "CC(C)N1CCN(CCCSc2nnnn2C)CC1", "Percent Effect": -1.123}
{"smiles": "CCN1CCN(c2ccc(C#N)cn2)CC1", "Percent Effect": 7.735}
{"smiles": "Cc1nscc1C(=O)Nc1ccc(C(N)=O)cc1F", "Percent Effect": 11.65}
{"smiles": "COCCOC1CCN(c2cccc(C)n2)CC1", "Percent Effect": 59.02}
{"smiles": "COc1ncccc1C(=O)N(CC(F)F)C1CC1", "Percent Effect": -6.9}
{"smiles": "COc1ccc(Br)cc1CNCC1CCS(=O)(=O)C1", "stereo": "stereo unspecified", "Percent Effect": 2.366}
{"smiles": "CNCCCNC(=O)c1coc(Br)c1", "Percent Effect": -17.26}
{"smiles": "Cc1cc(F)ccc1CN1CCOC(CCN)C1", "stereo": "stereo unspecified", "Percent Effect": 17.51}
{"smiles": "CCn1nccc1C(=O)N1C[C@@H](CO)[C@H](N(C)C)C1", "Percent Effect": -17.19}
{"smiles": "O=C(Cn1ccccc1=O)Nc1nc2c(s1)CCC2", "Percent Effect": -20.45}
{"smiles": "CSc1ccc(CN)cc1", "Percent Effect": 10.12}
{"smiles": "Cn1cc(CNCC(=O)NCc2ccco2)cn1", "Percent Effect": 0.3275}
{"smiles": "CC(C)(C)NC(=O)CNC(=O)c1cccc2cn[nH]c12", "Percent Effect": 1.05}
{"smiles": "CO[C@@H]1C[C@@H](CO)N(C(=O)OC(C)(C)C)C1", "Percent Effect": 22.12}
{"smiles": "CC(CNS(N)(=O)=O)Cc1cccs1", "stereo": "stereo unspecified", "Percent Effect": 40.79}
{"smiles": "CC(C)C(NC(=O)C1=COCCO1)c1ccccc1", "stereo": "stereo unspecified", "Percent Effect": -8.072}
{"smiles": "CN(C)CC(N)c1ccco1", "stereo": "stereo unspecified", "Percent Effect": -7.32}
{"smiles": "CN1CCCN(C(=O)c2ccco2)c2ccccc21", "Percent Effect": 65.22}
{"smiles": "CCOCC(=O)NCC1(O)CCCc2ccccc21", "stereo": "stereo unspecified", "Percent Effect": 51.85}
{"smiles": "c1ccc2[nH]c(N3CCNCC3)nc2c1", "Percent Effect": 18.91}
{"smiles": "COc1ccc([S+]([O-])Cc2noc(C)n2)cc1", "stereo": "stereo unspecified", "Percent Effect": 68.2}
{"smiles": "COc1ccccc1OC1CN(c2nccc(N)n2)C1", "Percent Effect": 10.75}
{"smiles": "Cc1cc(F)ccc1NC(=O)NCCCn1cnnc1", "Percent Effect": -3.393}
{"smiles": "CN(CCCc1ccccc1)CC(=O)NCCC#N", "Percent Effect": 12.82}
{"smiles": "NCc1nc(-c2ccsc2)no1", "Percent Effect": 12.67}
{"smiles": "O=C(NCc1cccnc1)c1ccc(C(F)(F)F)nc1", "Percent Effect": -5.74}
{"smiles": "C[C@@H]1CNC[C@H]1C(=O)N1CCOCC1", "Percent Effect": 5.692}

Repeated from the top, 3 entries:

SMILES	Percent Effect
CSCCC(C)(N)C#N (stereo unspecified)	10.82
O=C1NCCCCC1N1CCNCC1 (stereo unspecified)	0.1373
CCNC(C)(C)C(=O)N(C)Cc1ccc(OC)c(F)c1	-17.13